Legend:
HIV-1 = assay: Anti-HIV-1 activity in MT-4 cells (MTT method); assay type: cell-based; conditions: selectivity index, ratio of CC50/EC50
Protocol: (§1) The evaluation of the antiviral activity of the compounds against HIV in MT-4 cells was performed using the MTT assay as described below. Stock solutions (10 × final concentration) of test compounds were added in 25 μL volumes to two series of triplicate wells to allow simultaneous evaluation of their effects on mock- and HIV-infected cells at the beginning of each experiment. Serial 5-fold dilutions of test compounds were made directly in flat-bottomed 96-well microtiter trays using a Biomek 3000 robot (Beckman Instruments, Fullerton, CA). Untreated HIV- and mock-infected cell samples were included as controls. HIV stock ([…]) at 100–300 CCID50 (50% cell culture infectious doses) or culture medium was added to either the infected or mock-infected wells of the microtiter tray. Mock-infected cells were used to evaluate the effects of the test compound on uninfected cells to assess the test compounds’ cytotoxicity. Exponentially growing MT-4 cells were centrifuged for 5 min at 220 g, and the supernatant was discarded. The MT-4 cells were resuspended at 6 × 10^5 cells/mL, and 50 μL volumes were transferred to the microtiter tray wells. Five days after infection, the viability of mock- and HIV-infected cells was examined spectrophotometrically using the MTT assay. The MTT assay is based on the reduction of yellow-colored 3-(4,5-dimethylthiazol-2-yl)-2,5-diphenyltetrazolium bromide (MTT) (Acros Organics) by mitochondrial dehydrogenase activity in metabolically active cells to a blue-purple formazan that can be measured spectrophotometrically. The absorbances were read in an eight-channel computer-controlled photometer (Infinite M1000, Tecan) at two wavelengths (540 and 690 nm). All data were calculated using the median absorbance value of three wells.

HIV-2 = assay: Anti-HIV-2 activity in MT-4 cells (MTT method); assay type: cell-based; conditions: selectivity index, ratio of CC50/EC50
Protocol: as §1

Compound	SI HIV-1 (HIV-1)	SI HIV-2 (HIV-2)
COc1ccc(N(C)C(=O)[C@H](Cc2cc(F)cc(F)c2)NC(=O)CN(Cc2ccc(C#N)cc2)C(=O)Cc2ccc(B3OC(C)(C)C(C)(C)O3)cc2)cc1 [I-17, (S)-2-(2-(N-(4-cyanobenzyl)-2-(4-(4,4,5,5-tetramethyl-1,3,2-dioxaborolan-2-yl)phenyl)acetamido)acetamido)-3-(3,5-difluorophenyl)-N-(4-methoxyphenyl)-N-methylpropanamide]	3	3
COc1ccc(N(C)C(=O)[C@H](Cc2cc(F)cc(F)c2)NC(=O)CN(Cc2ccc(F)cc2)C(=O)Cc2c[nH]c3ccc(Br)cc23)cc1 [I-9, (S)-2-(2-(2-(5-bromo-1H-indol-3-yl)-N-(4-fluorobenzyl)acetamido)acetamido)-3-(3,5-difluorophenyl)-N-(4-methoxyphenyl)-N-methylpropanamide]	6	<1
COc1ccc(N(C)C(=O)[C@H](Cc2cc(F)cc(F)c2)NC(=O)CN(Cc2ccc(F)cc2)C(=O)Cn2nc(C(F)(F)F)c3c2CCCC3)cc1 [I-19, (S)-3-(3,5-difluorophenyl)-2-(2-(N-(4-fluorobenzyl)-2-(3-(trifluoromethyl)-4,5,6,7-tetrahydro-1H-indazol-1-yl)acetamido)acetamido)-N-(4-methoxyphenyl)-N-methylpropanamide]	42	8
COc1ccc(N(C)C(=O)[C@H](Cc2cc(F)cc(F)c2)NC(=O)CN(Cc2ccc(F)cc2)C(=O)Cc2ccc(B3OC(C)(C)C(C)(C)O3)cc2)cc1 [I-12, (S)-3-(3,5-difluorophenyl)-2-(2-(N-(4-fluorobenzyl)-2-(4-(4,4,5,5-tetramethyl-1,3,2-dioxaborolan-2-yl)phenyl)acetamido)acetamido)-N-(4-methoxyphenyl)-N-methylpropanamide]	6	5
COc1ccc(N(C)C(=O)[C@H](Cc2cc(F)cc(F)c2)NC(=O)CN(Cc2ccc(F)cc2)C(=O)Cc2c(C)[nH]c3ccccc23)cc1 [I-7, (S)-3-(3,5-difluorophenyl)-2-(2-(N-(4-fluorobenzyl)-2-(2-methyl-1H-indol-3-yl)acetamido)acetamido)-N-(4-methoxyphenyl)-N-methylpropanamide]	8	–
COc1ccc(N(C)C(=O)[C@H](Cc2cc(F)cc(F)c2)NC(=O)CN(C(=O)Cc2ccc(B3OC(C)(C)C(C)(C)O3)cc2)C2CC2)cc1 [I-18, (S)-2-(2-(N-cyclopropyl-2-(4-(4,4,5,5-tetramethyl-1,3,2-dioxaborolan-2-yl)phenyl)acetamido)acetamido)-3-(3,5-difluorophenyl)-N-(4-methoxyphenyl)-N-methylpropanamide]	17	9
(S)-2-(2-(2-(5-bromo-2-methyl-1H-indol-3-yl)-N-(4-cyanobenzyl)acetamido)acetamido)-3-(3,5-difluorophenyl)-N-(4-methoxyphenyl)-N-methylpropanamide [I-16]	16	6
COc1ccc(N(C)C(=O)[C@H](Cc2cc(F)cc(F)c2)NC(=O)CN(Cc2ccc(F)cc2)C(=O)Cc2ccc(B(O)O)cc2)cc1 [I-23, (S)-(4-(2-((2-((3-(3,5-difluorophenyl)-1-((4-methoxyphenyl)(methyl)amino)-1-oxopropan-2-yl)amino)-2-oxoethyl)(4-fluorobenzyl)amino)-2-oxoethyl)phenyl) boronic acid]	4	3
COc1ccc(N(C)C(=O)[C@H](Cc2cc(F)cc(F)c2)NC(=O)CN(Cc2ccccc2)C(=O)Cc2c(C)[nH]c3ccccc23)cc1 [I-21, (S)-2-(2-(N-benzyl-2-(2-methyl-1H-indol-3-yl)acetamido)acetamido)-3-(3,5-difluorophenyl)-N-(4-methoxyphenyl)-N-methylpropanamide]	10	4
(S)-2-(2-(N-(4-cyanobenzyl)-2-(5-fluoro-2-methyl-1H-indol-3-yl)acetamido)acetamido)-3-(3,5-difluorophenyl)-N-(4-methoxyphenyl)-N-methylpropanamide [I-15]	9	26
COc1ccc(N(C)C(=O)[C@H](Cc2cc(F)cc(F)c2)NC(=O)CN(Cc2ccc(C#N)cc2)C(=O)Cc2cccc3ccccc23)cc1 [I-14, (S)-2-(2-(N-(4-cyanobenzyl)-2-(naphthalen-1-yl)acetamido)acetamido)-3-(3,5-difluorophenyl)-N-(4-methoxyphenyl)-N-methylpropanamide]	–	>82
COc1ccc(N(C)C(=O)[C@H](Cc2cc(F)cc(F)c2)NC(=O)CN(Cc2ccc(C#N)cc2)C(=O)Cc2ccc3ccccc3c2)cc1 [I-13, (S)-2-(2-(N-(4-cyanobenzyl)-2-(naphthalen-2-yl)acetamido)acetamido)-3-(3,5-difluorophenyl)-N-(4-methoxyphenyl)-N-methylpropanamide]	–	>1
COc1ccc(N(C)C(=O)[C@H](Cc2cc(F)cc(F)c2)NC(=O)CN(CC2CCCCC2)C(=O)Cn2nc(C(F)(F)F)cc2C)cc1 [I-20, (S)-2-(2-(N-(cyclohexylmethyl)-2-(5-methyl-3-(trifluoromethyl)-1H-pyrazol-1-yl)acetamido)acetamido)-3-(3,5-difluorophenyl)-N-(4-methoxyphenyl)-N-methylpropanamide]	2	2
COc1ccc(N(C)C(=O)[C@H](Cc2cc(F)cc(F)c2)NC(=O)CN(CC2CCCCC2)C(=O)Cc2c[nH]c3ccc(Br)cc23)cc1 [I-10, (S)-2-(2-(2-(5-bromo-1H-indol-3-yl)-N-(cyclohexylmethyl)acetamido)acetamido)-3-(3,5-difluorophenyl)-N-(4-methoxyphenyl)-N-methylpropanamide]	<1	<1
COc1ccc(N(C)C(=O)[C@H](Cc2cc(F)cc(F)c2)NC(=O)CN(Cc2ccccc2)C(=O)Cc2ccc3ccccc3c2)cc1 [I-22, (S)-2-(2-(N-benzyl-2-(naphthalen-2-yl)acetamido)acetamido)-3-(3,5-difluorophenyl)-N-(4-methoxyphenyl)-N-methylpropanamide]	<1	<1
COc1ccc(N(C)C(=O)[C@H](Cc2cc(F)cc(F)c2)NC(=O)CN(Cc2ccc(F)cc2)C(=O)Cc2cccc3ccccc23)cc1 [I-8, (S)-3-(3,5-difluorophenyl)-2-(2-(N-(4-fluorobenzyl)-2-(naphthalen-1-yl)acetamido)acetamido)-N-(4-methoxyphenyl)-N-methylpropanamide]	–	>33

Source: paper PMC9502897, “Design, Synthesis and Structure—Activity Relationships of Phenylalanine-Containing Peptidomimetics as Novel HIV-1 Capsid Binders Based on Ugi Four-Component Reaction” (Molecules, 2022)
